Data as given in PubChem BioAssay AID624099 (ICCB-Longwood, 2012)

Test: 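Host factors E2 relies on to silence an HPV18 LCR reporter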 (primary screen)
Cell system: human C33A cervical carcinoma cells (HPV-negative) stably expressing BPV1 E2 and an HPV18 LCR luciferase reporter
Reagent: siRNA pool against human genes, 40 nM
Timing: 72 h
Measurement: 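HPV18 LCR reporter light per well, converted to plate-wise z-scores that exclude control wells, and averaged over triplicate plates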
Scale: mean z-score and z-score: higher = stronger reporter signal, weaker E2 silencing
Rule for the call: 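Mean z ≥ 2 together with z ≥ 2 in two or more of the three replicates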
Shown is one part, drawn at random, of about 21,000 reagents tested. Of all reagents, 497 (2.4%) were called active. 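Higher z means weaker E2 silencing; only reporter increases were scored, and knock-downs that hurt cell survival may mask genuine repressor factors.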 No sequences are given here.

The opening 4 records as a preview:
Target gene	mean z-score	z-score, replicate A	z-score, replicate B	z-score, replicate C	outcome
SDCBP	1.04	0.86	0.85	1.4	inactive
NACC2	1.98	2.09	2.2	1.64	inactive
SIRPA	0.82	0.46	0.9	1.11	inactive
AFF4	-0.71	-0.76	-0.43	-0.92	inactive

Main list, from the start:
Target gene	mean z-score	z-score, replicate A	z-score, replicate B	z-score, replicate C	outcome
SDCBP	1.04	0.86	0.85	1.4	inactive
NACC2	1.98	2.09	2.2	1.64	inactive
SIRPA	0.82	0.46	0.9	1.11	inactive
AFF4	-0.71	-0.76	-0.43	-0.92	inactive
TOR4A	0.8	0.52	0.71	1.17	inactive
RHBDL3	-0.04	-0.28	0.23	-0.05	inactive
KIF3C	1.27	1.32	1.23	1.27	inactive
MGMT	-1.2	-1.18	-1.54	-0.88	inactive
IFNA7	0.02	-0.04	0.13	-0.03	inactive
LRRC4	-0.75	-0.94	-0.76	-0.54	inactive
HS1BP3	-0.95	-0.56	-1.15	-1.14	inactive
DGUOK	-0.15	-0.17	-0.11	-0.17	inactive
FAF2	-0.01	0.12	-0.23	0.07	inactive
PAIP2	-0.58	-0.22	-0.91	-0.6	inactive
KCNV2	-0.34	-0.57	-0.29	-0.15	inactive
TSPAN15	1.17	1.14	1.08	1.28	inactive
GLIDR	-1.23	-1.19	-1.04	-1.44	inactive
TMEM59L	0.54	0.27	0.57	0.76	inactive
PCSK7	0.65	0.63	0.75	0.57	inactive
PRO2964 (retired record)	-0.26	0.11	-0.27	-0.62	inactive
ZNF577	-0.66	-0.63	-0.47	-0.87	inactive
ZNF641	-0.33	-0.23	-0.32	-0.45	inactive
SLCO6A1	0.29	0.24	-0.04	0.68	inactive
CTRL	-0.88	-1.12	-0.89	-0.64	inactive
BPTF	-0.35	0.24	-0.68	-0.61	inactive
USP24	-0.92	-0.84	-0.82	-1.1	inactive
AGPS	-0.48	-0.44	-0.42	-0.6	inactive
FBLN2	0.13	0.21	0.21	-0.03	inactive
SMAD7	-0.31	-0.11	-0.26	-0.57	inactive
RAB41	-0.31	-0.55	0.17	-0.56	inactive
ZMAT4	2.07	1.89	1.92	2.4	inactive
UGT1A8	1.59	1.36	1.86	1.56	inactive
GINS2	-0.66	-0.6	-0.67	-0.72	inactive
HOXC6	0.3	0.67	0.24	-0.01	inactive
CYBRD1	-1.29	-1.21	-1.31	-1.34	inactive
CES1P2	0.49	0.37	0.53	0.56	inactive
PKN1	0.31	0.25	0.17	0.51	inactive
HOOK2	0.67	0.65	-0.38	1.74	inactive
ZIC4	1.11	1.12	1.11	1.09	inactive
